Values from PubChem BioAssay AID504761 (Drosophila RNAi Screening Center, 2011)
Purpose: 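Fly genes whose silencing reduces dengue virus type 2 infection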 (primary screen). Cell system: D.Mel-2 cells from Drosophila. Reagents: long dsRNA against Drosophila genes. Conditions: infection with dengue virus type 2; dose and infection time not stated. Measured: 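Cells stained for dengue envelope protein and imaged; percent of infected cells per well on duplicate plates, ranked by infection, with stained nuclei counted for cell number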. Scale: infection score: higher = more virus-infected cells; cell count: higher = more cells in the well. Active means: 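Low infection ranks in the two replicates (chance level up to 0.065) followed by a retest with a 1.5-fold or larger significant decrease, p below 0.05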. Calls: active = confirmed: knock-down lowers infection; inactive = not picked or not confirmed.
The deposit covers about 22,000 reagents; this is a random part of those that have a named target and a result. In the full data, 116 (0.52%) were called active. 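Calls depend on retest data that are not deposited; infection was ranked per plate without normalising between plates; the unit of the infection score is not given.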 The raw values are shown without normalisation. A plus sign joins genes that one reagent is predicted to hit. Reagent sequences are not shown. The record does not give: the amount of reagent, the time to read-out.

| Gene | amplicon | infection score, replicate 1 | infection score, replicate 2 | cell count, replicate 1 | cell count, replicate 2 | Outcome |
| --- | --- | --- | --- | --- | --- | --- |
| CG32945 | DRSC12014 | 0.78 | 5.02 | 5915 | 5898 | inactive |
| CG2685 | DRSC18463 | 21.7 | 14.1 | 3511 | 4216 | inactive |
| CG2685 | DRSC27295 | 31.6 | 40.2 | 5712 | 5154 | inactive |
| CG15861 | DRSC04274 | 3.58 | 35.5 | 6648 | 4869 | inactive |
| CG15861 | DRSC29309 | – | – | 282 | 334 | inactive |
| eys | DRSC00402 | 8.73 | 2 | 6395 | 6487 | inactive |
| eys | DRSC00403 | 6.17 | 8.76 | 6081 | 5572 | inactive |
| eys | DRSC00695 | 3.18 | 1.88 | 6194 | 6444 | inactive |
| b6 | DRSC18740 | 8.84 | 5.31 | 2274 | 6258 | inactive |
| b6 | DRSC24064 | 5.39 | 6.6 | 5953 | 6117 | inactive |
| SmydA-5 | DRSC04867 | 17.4 | 5.11 | 4469 | 6869 | inactive |
| SmydA-5 | DRSC27930 | 13.9 | 19 | 5415 | 6059 | inactive |
| Cyp4p1 | DRSC07372 | 17.3 | 5.43 | 6631 | 6719 | inactive |
| Cyp4p1 | DRSC26036 | 8.33 | 5.13 | 6471 | 5891 | inactive |
| CG31161 | DRSC16144 | 16.2 | 7.72 | 5479 | 5352 | inactive |
| CG31161 | DRSC25099 | 7.37 | 9.06 | 6473 | 6224 | inactive |
| Desat2 | DRSC15919 | 12.6 | 16.2 | 5777 | 5119 | inactive |
| Desat2 | DRSC25894 | 2.82 | 6.82 | 6565 | 5707 | inactive |
| Ssl1 | DRSC11634 | 9.15 | 5.99 | 2941 | 6464 | inactive |
| ato | DRSC16904 | 2.52 | 3.03 | 6121 | 6737 | inactive |
| spartin | DRSC12187 | 4.38 | 11.8 | 6784 | 6087 | inactive |
| spartin | DRSC27182 | 2.23 | 29.3 | 7035 | 6574 | inactive |
| Ttc7 | DRSC04836 | 12.5 | 19.2 | 6310 | 6271 | inactive |
| Rcd1 | DRSC07116 | 0.58 | 21.9 | 346 | 4966 | inactive |
| Rcd1 | DRSC23713 | 7.1 | 5.95 | 5478 | 5715 | inactive |
| CG32985 | DRSC02634 | 6.33 | 5.6 | 6497 | 6962 | inactive |
| CG32985 | DRSC24453 | 7.74 | 3.32 | 6019 | 5822 | inactive |
| CG18598 | DRSC15356 | 0.71 | 5.8 | 6498 | 3845 | inactive |
| sala | DRSC03605 | 10.4 | 7.46 | 5742 | 5747 | inactive |
| sala | DRSC28864 | 7.45 | 8.58 | 1974 | 1713 | inactive |
| Cpr65Ax2 + Cpr65Ax1 | DRSC10341 | 1.55 | 4.15 | 6014 | 5680 | inactive |
| Cpr65Ax2 + Cpr65Ax1 | DRSC10344 | 0.52 | 7.41 | 6360 | 5535 | inactive |
| rump | DRSC16480 | 11.9 | 15.2 | 5331 | 5451 | inactive |
| Or69a | DRSC11243 | 3.01 | 4.67 | 6203 | 6430 | inactive |
| Or69a | DRSC25967 | 2.41 | 2.54 | 6589 | 6303 | inactive |
| CG15260 | DRSC01977 | 6.99 | 3.96 | 5866 | 6597 | inactive |
| CG3769 | DRSC02723 | – | 8.4 | 537 | 3560 | inactive |
| CG6567 | DRSC16066 | 1.93 | 15.3 | 6822 | 5565 | inactive |
| HDAC3 | DRSC12352 | 34.7 | 23.4 | 5574 | 5767 | inactive |
| CG13314 | DRSC09985 | 2.9 | 2.92 | 6077 | 6032 | inactive |
| Bsg | DRSC01010 | 0.17 | – | 5743 | 5704 | inactive |
| Bsg | DRSC01011 | 3.53 | 9.12 | 6179 | 6764 | inactive |
| Pak3 | DRSC15017 | 9.67 | 6.07 | 5883 | 6194 | inactive |
| Pak3 | DRSC26832 | 2.58 | 9.2 | 5692 | 5913 | inactive |
| Pp1-Y2 | DRSC21608 | 6.73 | 15.6 | 6062 | 4702 | inactive |
| Ance-4 | DRSC07104 | 7.26 | 14.4 | 5826 | 5371 | inactive |
| Dnaaf4 | DRSC02405 | 11.2 | 12.2 | 6221 | 5379 | inactive |
| Ilp5 | DRSC08998 | 4.8 | 4.7 | 6334 | 6705 | inactive |
| CG7342 | DRSC16230 | 6.51 | 1.66 | 6769 | 6680 | inactive |
| Mst98Ca | DRSC16749 | 3.57 | 2.17 | 6477 | 7139 | inactive |
| mld | DRSC13681 | 1.06 | 0.51 | 6321 | 5135 | active |
| mld | DRSC14622 | 2.75 | 5.7 | 6763 | 6541 | inactive |
| mld | DRSC21771 | 29.8 | 18.8 | 4585 | 6350 | inactive |
| mld | DRSC23427 | 3.82 | 21.2 | 6258 | 5930 | inactive |
| mld | DRSC23729 | 12 | 6.19 | 5974 | 6645 | inactive |
| Trf2 | DRSC18727 | 3.63 | 6.83 | 6056 | 6183 | inactive |
| Trf2 | DRSC29152 | 8.13 | 13.9 | 5066 | 3601 | inactive |
| x16 | DRSC00960 | 3.71 | 0.9 | 6489 | 6188 | inactive |
| x16 | DRSC03638 | 4.56 | 1.91 | 6029 | 5815 | inactive |
| x16 | DRSC23865 | 2.17 | 3 | 6441 | 6570 | inactive |
